This experiment concerns SARS-CoV-2. Put plainly: Anti-SARS-CoV-2 activity, detection of viral genomes by RT-qPCR on infected cells.
Setting [1] is: Table 3, RT-qPCR of viral genomes, Vero E6 cells infected with SARS-CoV-2.
The mark [2] stands for this setting: Table 2, RT-qPCR of viral genomes, Vero E6 cells infected with SARS-CoV-2.
The mark [3] stands for this setting: read-out: IC50 (μM) SARS-CoV-2, Table 3, RT-qPCR of viral genomes, Vero E6 cells infected with SARS-CoV-2.
The mark [4] stands for this setting: read-out: IC50 value, anti-SARS-CoV-2 assay, Vero E6 cells.

Like-named read-outs stand apart in the source and are kept apart here.

As for `c1ccc([C@H]2CC[C@H](CCCN3CCN(C4CCCCC4)CC3)CC2)cc1` (relative stereo), the “IC50 (μM) SARS-CoV-2” value under setting [1] was “NOT ACTIVE”.
Turning to `COc1cc2c(cc1OC)CN(CCCN1CCc3ccccc3C1=O)CC2`, the “IC50 (μM) SARS-CoV-2” value under setting [2] is “NOT ACTIVE”.
For the compound `O=C1c2ccccc2CCN1CCCN1CCN(C2CCCCC2)CC1`, the “IC50 (μM) SARS-CoV-2” value under setting [1] is recorded as “NOT ACTIVE”.
As for `O=C1COc2cccnc2N1CCCN1CCN(C2CCCCC2)CC1`, the “IC50 (μM) SARS-CoV-2” value under setting [1] was “NOT ACTIVE”.
The same measure, in the same setting: then `c1ccc([C@H]2CC[C@@H](CCCN3CCN(C4CCCCC4)CC3)CC2)cc1` (relative stereo), with “NOT ACTIVE”.
Still for that read-out and setting: to `C1CCC(CCCN2CCN(C3CCCCC3)CC2)CC1` belongs “NOT ACTIVE”.
Take `COc1ccc([C@H]2CC[C@@H](CCCN3CCN(C4CCCCC4)CC3)CC2)cc1` (relative stereo): the IC50 (in general, the concentration that gives 50% inhibition) stood at 2.35 µM under setting [3] and 2 µM under setting [4].
Taken in the same sequence, the figures for `COc1ccc([C@H]2CC[C@H](CCCN3CCN(C4CCCCC4)CC3)CC2)cc1` (relative stereo) were 2.31 µM and 2 µM.
Take `COc1cc2c(cc1OC)CN(CCCN1CCc3cc(F)ccc3C1=O)CC2`: the “IC50 (μM) SARS-CoV-2” value under setting [2] is given as “NOT ACTIVE”.
On to `COc1ccc2c(CCCN3CCCC(C)(C)C3)cccc2c1`, for which the “IC50 (μM) SARS-CoV-2” value (Table 4, RT-qPCR of viral genomes, Vero E6 cells infected with SARS-CoV-2) was “NOT ACTIVE”. Besides, the “anti-SARS-CoV-2 activity in words” value (Vero E6 cells) is given as “did not demonstrate any antiviral effect”.
As for `COc1cc2c(cc1OC)CN(CCCN1CCc3c(OC)cccc3C1=O)CC2`, the “IC50 (μM) SARS-CoV-2” value under setting [2] is on record as “NOT ACTIVE”.
On the same count and under the same terms, to `COc1cc2c(cc1OC)CN(CCCN1CCCc3c(OC)cccc31)CC2` belongs “NOT ACTIVE”.
